Pooled drug test results. Numbers come from NIAID ChemDB, via PubChem.

Shared fields: growth or infection tests; agent: Varicella zoster virus; endpoint: EC50

Rows are shuffled and stem from different studies.

smiles	strain or isolate	cells	method	value
O=c1[nH]c(=S)n([C@H]2C[C@H](O)[C@@H](CO)O2)cc1F	HOSEN	MRC-5	plaque count	>383 µM
CC(=O)O[C@H]1C[C@H](n2cc(/C=C/Br)c(=O)[nH]c2=O)O[C@@H]1COP1(=O)OCc2ccccc2O1	OKA	HELF	plaque count	0.006 µg/mL
Nc1ncnc2c1ncn2C[C@@H](CO)OCP(=O)(O)O	ACV-resistant	HEL	plaque count	0.0045 µg/mL
Nc1ncc2c(ncn2COC(CO)CO)n1	OKA (TK+)	HEL	plaque count	0.046 µM
Nc1nc2c(ncn2COC(CO)CO)c(=O)[nH]1	PMEDAP-resistant	HEL	plaque count	0.043 µg/mL
Nc1nccc2c1ncn2C[C@@H](CO)OCP(=O)(O)O	07/1 (TK-)	HEL	plaque count	0.12 µM
O=C(O)CP(=O)(O)O	PCV-resistant/A	HEL	plaque count	33.1 µg/mL
Nc1nc(=S)n([C@H]2C[C@H](O)[C@@H](CO)O2)cc1I	HOSEN	MRC-5	plaque count	95.1 µM
O=c1[nH]c(=O)n([C@H]2C[C@H](O)[C@@H](COP3(=O)OCc4cc5ccccc5cc4O3)O2)cc1/C=C/Br	OKA	HELF	plaque count	0.008 µg/mL
Cc1cn([C@@H]2O[C@H](CO)[C@@H](O)[C@@H]2O)c(=O)[nH]c1=O	OKA (TK+)	HEL	plaque count	0.15 µM
COc1ccc2c(c1)COP(=O)(OC[C@H]1O[C@@H](n3cc(/C=C/Br)c(=O)[nH]c3=O)C[C@@H]1O)O2	OKA	HELF	plaque count	0.01 µg/mL
C[C@H](COc1cc(N)nc(N)n1)OCP(=O)(O)O	YS		cytopathic effect	18 µM
Cc1cccc2c1OP(=O)(OC[C@H]1O[C@@H](n3cc(/C=C/Br)c(=O)[nH]c3=O)C[C@@H]1OC(=O)C(C)C)OC2	OKA	HELF	plaque count	0.017 µg/mL
Nc1ncnc2c1ncn2C[C@H]1COP(=O)(O)CO1	OKA (TK+)	HEL	plaque count	0.16 µM
CC[C@H](C)[C@H](N)C(=O)O[C@H]1C[C@H](n2cc(/C=C/Br)c(=O)[nH]c2=O)O[C@@H]1COP1(=O)OCc2cccc(C)c2O1	OKA	HELF	plaque count	0.025 µg/mL
O=c1[nH]c(=O)n([C@H]2C[C@H](O)[C@@H](CO)O2)cc1F	HOSEN	MRC-5	plaque count	>385 µM
Nc1cc(OC[C@H](CO)OCP(=O)(O)O)nc(N)n1	OKA		cytopathic effect	0.51 µM
Nc1nc2c(ncn2CCC(CO)CO)c(=O)[nH]1	BVDU-resistant	HEL	plaque count	5.8 µg/mL
Nc1ncnc2c1ncn2CCOCP(=O)(O)O	Oka BVaraU-resistant	HEL	cytopathic effect	26.4 µM
Nc1ncnc2c1ncn2[C@@H]1O[C@H](CO)[C@@H](O)[C@@H]1O	YS (TK+)	HEL	plaque count	7.9 µM
O=c1[nH]c(=S)n([C@H]2C[C@H](O)[C@@H](CO)O2)cc1I	HOSEN	MRC-5	plaque count	3.63 µM
O=c1[nH]c(=O)n([C@H]2C[C@H](O)[C@@H](COP3(=O)OCc4c(Cl)cccc4O3)O2)cc1/C=C/Br	OKA	HELF	plaque count	0.011 µg/mL
C[C@H](Cn1cnc2c(N)ncnc21)OCP(=O)(O)O	OKA		cytopathic effect	≥350 µM
Cc1cccc2c1OP(=O)(OC[C@H]1O[C@@H](n3cc(/C=C/Br)c(=O)[nH]c3=O)C[C@@H]1OC(=O)[C@H](N)Cc1ccccc1)OC2	OKA	HELF	plaque count	0.065 µg/mL
Nc1ncnc2c1ncn2[C@@H]1O[C@H](CO)[C@H]1CO	YS/R (TK-)	HEL	plaque count	1.7 µM

An empty or dashed field is not shown. ECn: concentration that inhibits the pathogen or its effect by n%.